Results of unrelated studies side by side (data: NIAID ChemDB).

All rows: tests in culture; species: HIV-1; cell line: MT-4; read-out: EC50

Conditions beyond the fields shown may differ between rows. Blank or dashed fields: not listed here. ECn: concentration that inhibits the pathogen or its effect by n%.

| SMILES | strain or isolate | mutations | method | result |
|---|---|---|---|---|
| CC1CCN(CCCN2c3ccccc3NCc3cccn32)CC1 | IIIB | - | cytopathic effect / MTT | >62 µM |
| CCCCCCCCCCCCCCCC(=O)Nc1cc(S(=O)(=O)O)cc2cc(S(=O)(=O)O)cc(O)c12 | IIIB | - | cytopathic effect / MTT | 37 µM |
| N#Cc1cc(Cl)cc(Oc2c(Br)ccc(Cn3ccc(=O)[nH]c3=O)c2F)c1 | - | Wild type | MTT | 0.001 µM |
| C1CCNCCCNCCCN(CCCN2CCCNCCCNCCCCNCCCNCCCCNCCCNCCC2)CCCNCCCNCCCCNCCCNC1 | IIIB | - | cytopathic effect | 1.3 µM |
| CC(C)CN(C[C@@H](O)[C@H](Cc1ccccc1)NC(=O)O[C@H]1CCOC1)S(=O)(=O)c1ccc(N)cc1 | IIIB | - | - | 0.08 µM |
| C1CNCCCN(CCCN2CCCNCCCNCCC2)CCCNC1 | IIIB | - | cytopathic effect | 204 µM |
| Cc1ccnc2c1NC(=O)c1cccnc1N2C1CC1 | IIIB | K103N | MTT | >10.1 µM |
| Cc1cc(C)cc(S(=O)(=O)c2c(C(N)=O)[nH]c3ccc(Cl)cc23)c1 | - | RT-K103N Y181C | cytopathic effect / MTT | 0.8 µM |
| CCN(C)C(=O)c1cnnn1C1OC(CO[Si](C)(C)C(C)(C)C)C2(OS(=O)(=O)C=C2N)C1O[Si](C)(C)C(C)(C)C | IIIB | - | cytopathic effect | 0.72 µM |
| CC(C)=CCN1C(=O)c2cccn2S(=O)(=O)c2ccc(Cl)cc21 | IIIB | - | cytopathic effect / MTT | >300 µM |
| Cc1cc(-c2ccc(C#N)cc2)cc(C)c1Oc1nc(Nc2ccc(C#N)cc2)nc2ccsc12 | IIIB | L100I | MTT | 0.0232 µM |
| Nc1nc2c(ncn2[C@H]2CO[C@@H](CO)O2)c(=O)[nH]1 | IIIB | - | RT activity | 0.051 µM |
| Cc1cn([C@H]2C=C[C@@H](CO)O2)c(=O)[nH]c1=O | - | - | p24 / antigen | 0.002 µg/mL |
| CC(C)N1C(=O)c2cccn2S(=O)(=O)c2cc(Cl)ccc21 | IIIB | - | cytopathic effect / MTT | >300 µM |
| Nc1ncnc2c1ncn2[C@H]1C[C@@H](O)[C@@H](CO)O1 | - | - | cytopathic effect / trypan blue | >500 µM |
| NCC(=O)Nc1ccc(Cl)cc1C(=O)c1ccc[nH]1 | IIIB | - | cytopathic effect / MTT | >1.7 µg/mL |
| O=c1[nH]c(=O)n([C@H]2C[C@H](O)[C@@H](CO)O2)cc1/C=C/Br | - | - | cytopathic effect / trypan blue | >500 µM |
| N#Cc1cc(Cl)cc(Oc2c(Br)ccc(Cn3[nH]c(=O)[nH]c3=O)c2F)c1 | - | Wild type | MTT | 0.003 µM |
| O=c1[nH]c(=O)n([C@H]2C=C[C@@H](CO)O2)cc1C#CCCCCO | IIIB | - | RT activity | >100 µM |
| C/C(C#N)=C\c1cc(C)c(Nc2ccnc(Nc3ccc(C#N)cc3)n2)c(C)c1 | - | RT-Y188L | cytopathic effect / MTT | 0.00316 µM |
| CC(C)Nc1cccnc1N1CCN(C(=O)c2cc3cc(NS(C)(=O)=O)ccc3[nH]2)CC1 | IIIB | - | cytopathic effect / MTS | 0.018 µM |
| Nc1ncnc2c1ncn2C[C@@H](CO)OCP(=O)(O)O | IIIB | - | cytopathic effect / trypan blue | >20 µM |
| CC(C)CN(C[C@@H](O)[C@H](Cc1ccccc1)NC(=O)[C@@H](NC(=O)CNCc1cccc(F)c1)C(C)(C)C)S(=O)(=O)c1ccc(N)cc1 | HXB2 | - | p24 | <0.012 µM |
| O=S1(=O)c2ccccc2N=Cc2cccn21 | IIIB | - | cytopathic effect / MTT | >46 µM |
| Nc1nc2c(ncn2[C@H]2C[C@H](O)[C@@H](CO)O2)c(=O)[nH]1 | - | - | cytopathic effect / trypan blue | >500 µM |
| Cc1ccnc2c1NC(=O)c1cccnc1N2C1CC1 | - | RT-Y181C | cytopathic effect / MTT | >30 µM |
| CC(C)=CCN1Cc2cc(Cl)cc3[nH]c(=S)n(c23)C[C@@H]1C | - | RT-D67N K70R T215Y K219Q | - | <0.4 µM |
| N#Cc1ccc(Nc2nc(Oc3ccc(-c4ccc(C#N)cc4)cc3[N+](=O)[O-])c3sccc3n2)cc1 | IIIB | K103N | MTT | 0.0055 µM |
| N#Cc1cc(Cl)cc(Oc2c(Br)ccc(Cc3ccc[nH]c3=O)c2F)c1 | K103N/Y181C | NNRTI-resistant (RT K103N/Y181C) | MTT | >0.1 µM |
| CCNC(=O)c1cnnn1C1OC(CO[Si](C)(C)C(C)(C)C)C2(OS(=O)(=O)C=C2N)C1O[Si](C)(C)C(C)(C)C | IIIB | - | cytopathic effect | 0.17 µM |
| Nc1nc2c(ncn2CCOCP(=O)(O)O)c(=O)[nH]1 | IIIB | - | cytopathic effect / trypan blue | 2.7 µM |
| CC(=O)O[C@@]12C[C@@H](C)[C@@]3(O)[C@@H](C=C(CO)C[C@]4(O)C(=O)C(C)=C[C@@H]34)[C@@H]1C2(C)C | NRTI resistant | RT K70R T215Y 69SS A62V E79K V118I M184V E203K L210W | cytopathic effect / MTT | 0.06 µg/mL |
| c1cc(CN2CCNCCNCCNCC2)cc(CN2CCNCCNCCNCC2)c1 | IIIB | - | syncytia | 0.85 µM |
| Nc1nc(N)c2ncn(CC(CF)OCP(=O)(O)O)c2n1 | IIIB | - | cytopathic effect / trypan blue | 10 µM |
| C=CCN1C(=O)c2cccn2S(=O)(=O)c2ccccc21 | IIIB | - | cytopathic effect / MTT | 5 µM |
| Cc1ccnc2c1NC(=O)c1cccnc1N2C1CC1 | - | Wild type | MTT | 0.08 µM |
| COc1ccc(OC)c2c1c(/C(O)=C/C(=O)C(=O)O)cn2Cc1ccc(F)cc1 | IIIB | - | MTT | 2.13 µM |
| Nc1nc(N)c2ncn([C@H]3CO[C@@H](CO)O3)c2n1 | HE | - | RT activity | 0.94 µM |
| CN(C)C(=O)c1cnnn1[C@@H]1O[C@H](CO[Si](C)(C)C(C)(C)C)C2(OS(=O)(=O)C=C2N)[C@H]1O[Si](C)(C)C(C)(C)C | IIIB | - | cytopathic effect | 0.06 µM |
| Cc1cn([C@H]2C[C@H](N=[N+]=[N-])[C@@H](CO)O2)c(=O)[nH]c1=O | IIIB | - | cytopathic effect / trypan blue | 0.016 µM |
| C1CNCCCN(CCCN2CCNCCC[N+](CCCN3CCCNCCCNCCC3)(CCCN3CCCNCCCNCCC3)CCCNCC2)CCCNC1 | IIIB | - | cytopathic effect | 9.8 µM |
| CC(C)(C)[Si](C)(C)OCC1OC(n2nncc2C(=O)N2CCC2)C(O[Si](C)(C)C(C)(C)C)C12OS(=O)(=O)C=C2N | IIIB | - | cytopathic effect | 0.14 µM |
| Cc1cn([C@H]2C[C@H](N=[N+]=[N-])[C@@H](COP(=O)(OCCSC(=O)C(C)(C)O)OCCSC(=O)C(C)(C)O)O2)c(=O)[nH]c1=O | IIIB | - | cytopathic effect / MTT | 0.041 µM |
| Cc1cc(CC#N)cc(C)c1Nc1ccnc(Nc2ccc(C#N)cc2)n1 | - | RT-Y188L | cytopathic effect / MTT | 0.251 µM |
| Cc1cn([C@@H]2C[C@@H](N=[N+]=[N-])[C@H](COP(=O)(O)OC3CCC4(C)C(CCC5C4CC(O)C4(C)C(C(C)CCC(=O)OC[C@@H]6CC[C@H](n7cnc8c(=O)[nH]cnc87)O6)CCC54)C3)O2)c(=O)[nH]c1=O | - | - | cytopathic effect | 0.005 µM |
| CN1C(=O)c2cccn2S(=O)(=O)c2ccccc21 | IIIB | - | cytopathic effect / MTT | 10 µM |
| Cc1ccc(S(=O)(=O)c2c(C(=O)NNCCO)[nH]c3ccc(Cl)cc23)c(C)c1 | IIIB | - | cytopathic effect / MTT | 0.08 µM |
| Nc1ccn([C@H]2CO[C@@H](CO)O2)c(=O)n1 | RF | - | cytopathic effect / MTT | 0.045 µg/mL |
| Cc1cccc(S(=O)(=O)c2c(C(=O)NNCCO)[nH]c3ccc(Cl)cc23)c1 | - | RT-K103N Y181C | cytopathic effect / MTT | 20 µM |
| COc1cccc2c1c(/C(O)=C/C(=O)C(=O)O)cn2Cc1cc(C)cc(C)c1 | - | - | MTT | 4.63 µM |
| Cc1ccnc2c1NC(=O)c1cccnc1N2C1CC1 | IIIB | - | cytopathic effect / MTT | 0.05 µM |
| O=C1C2c3cccn3S(=O)(=O)c3ccccc3N2C(=O)CN1Cc1ccccc1 | IIIB | - | cytopathic effect / MTT | >300 µM |
| Cc1cn([C@H]2C[C@H](N=[N+]=[N-])[C@@H](CO)O2)c(=O)[nH]c1=O | IIIB | - | RT activity | 0.0098 µM |
| Cc1cn([C@H]2C[C@H](N=[N+]=[N-])[C@@H](CO)O2)c(=O)[nH]c1=O | IIIB | - | cytopathic effect / MTT | 0.0019 µg/mL |
| C/C(=C\C#N)c1cc(C)c(Nc2ccnc(Nc3ccc(C#N)cc3)n2)c(C)c1 | - | RT-L100I K103N | cytopathic effect / MTT | 0.0251 µM |
| Nc1nc(N)c2ncn(CCOCP(=O)(O)O)c2n1 | IIIB | - | cytopathic effect / trypan blue | 1.4 µM |
| Cc1cc(C)cc(S(=O)(=O)c2c(C(=O)NNCCO)[nH]c3ccc(Cl)cc23)c1 | - | RT-K103N Y181C | cytopathic effect / MTT | 3.2 µM |
| C1CCNCCCNCCCNCCCCNCCCNCCCNCCCCNCCCNCCCNCCCNCCCCNCCCNC1 | IIIB | - | cytopathic effect | 3.8 µM |
| Cc1n[nH]c(=O)n1Cc1ccc(Br)c(Oc2cc(Cl)cc(C#N)c2)c1F | K103N/Y181C | NNRTI-resistant (RT K103N/Y181C) | MTT | >0.1 µM |
| C1CCNCCCN(CCCN2CCCNCCCCNCCCNCCCNCCCNCCCCNCCC2)CCCNCCCCNCCCNCCCNCCCNC1 | IIIB | - | cytopathic effect | 1.2 µM |
| N#Cc1cc(Cl)cc(Oc2c(Br)ccc(Cn3c(=O)[nH]c4ccccc43)c2F)c1 | - | Wild type | MTT | 0.005 µM |
| O=C(CCCCCCCCCCC(=O)Nc1cc(S(=O)(=O)O)cc2cc(S(=O)(=O)O)cc(O)c12)Nc1cc(S(=O)(=O)O)cc2cc(S(=O)(=O)O)cc(O)c12 | IIIB | - | cytopathic effect / MTT | 44 µM |
| Nc1ncnc2c1ncn2CC(CF)OCP(=O)(O)O | IIIB | - | cytopathic effect / trypan blue | 23 µM |
| O=C(NCC#Cc1cn([C@H]2C=C[C@@H](CO)O2)c(=O)[nH]c1=O)C(F)(F)F | IIIB | - | RT activity | >100 µM |

For reference, 9 entries again:

| SMILES | strain or isolate | mutations | method | result |
|---|---|---|---|---|
| Nc1ncnc2c1ncn2CC(CF)OCP(=O)(O)O | IIIB | - | cytopathic effect / trypan blue | 23 µM |
| N#Cc1cc(Cl)cc(Oc2c(Br)ccc(Cn3[nH]c(=O)[nH]c3=O)c2F)c1 | - | Wild type | MTT | 0.003 µM |
| Cc1n[nH]c(=O)n1Cc1ccc(Br)c(Oc2cc(Cl)cc(C#N)c2)c1F | K103N/Y181C | NNRTI-resistant (RT K103N/Y181C) | MTT | >0.1 µM |
| O=S1(=O)c2ccccc2N=Cc2cccn21 | IIIB | - | cytopathic effect / MTT | >46 µM |
| CCN(C)C(=O)c1cnnn1C1OC(CO[Si](C)(C)C(C)(C)C)C2(OS(=O)(=O)C=C2N)C1O[Si](C)(C)C(C)(C)C | IIIB | - | cytopathic effect | 0.72 µM |
| O=C1C2c3cccn3S(=O)(=O)c3ccccc3N2C(=O)CN1Cc1ccccc1 | IIIB | - | cytopathic effect / MTT | >300 µM |
| Nc1nc2c(ncn2[C@H]2CO[C@@H](CO)O2)c(=O)[nH]1 | IIIB | - | RT activity | 0.051 µM |
| Cc1ccc(S(=O)(=O)c2c(C(=O)NNCCO)[nH]c3ccc(Cl)cc23)c(C)c1 | IIIB | - | cytopathic effect / MTT | 0.08 µM |
| C/C(C#N)=C\c1cc(C)c(Nc2ccnc(Nc3ccc(C#N)cc3)n2)c(C)c1 | - | RT-Y188L | cytopathic effect / MTT | 0.00316 µM |